Source: publication PMC5723134
Tags and fusion partners may be left off the protein sequences shown. The exact form of at least one protein or probe is not confirmed.

System: T1, His6-LrhA (Pantoea stewartii subsp. stewartii DC283)
T1 sequence (looked up): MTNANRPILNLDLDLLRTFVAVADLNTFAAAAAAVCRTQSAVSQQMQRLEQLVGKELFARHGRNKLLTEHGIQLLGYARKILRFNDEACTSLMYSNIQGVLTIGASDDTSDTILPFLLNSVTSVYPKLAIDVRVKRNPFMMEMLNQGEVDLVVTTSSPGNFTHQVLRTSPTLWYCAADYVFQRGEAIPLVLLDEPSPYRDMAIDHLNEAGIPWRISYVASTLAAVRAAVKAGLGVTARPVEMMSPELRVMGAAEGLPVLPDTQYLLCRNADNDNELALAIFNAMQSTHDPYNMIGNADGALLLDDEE
Experiment: EMSA
Settings: 5 nM DNA, 10 mM Tris-HCl (pH not given), 50 mM NaCl, 1 mM MgCl2, 0.5 mM EDTA, 0.5 mM DTT, 10% glycerol, 50 ug/ml poly(dI-dC), 150 ug/ml BSA, 5 nM FAM-DNA, room temperature 1 h, recombinant protein, residues 1-307, protein details: N-terminal His6 (pET28a), label: 5'-FAM (reverse primer), probe letters rebuilt from the primers and the genome

Sequence | binding result (LrhA 0-800 nM) | binding result (LrhA 0-1000 nM)
ACTAGTCATAGCGTAAGTAGGGTGTGACAGCCGTGCATTAATCGTTAATACGGTTAACTATTTTATCTCTAAGGACTTTTTTTCGTTTTTTGAAGCCAGGCTAAAAAACAGAGAGCATCTTTAGTACAGGTTTACCTGTCTAAAAGTCTTATTCACTGTTTTTGGGCGGGTTGAATGCGCACAGGACGTGCAGGACGTGTTGGAAAATGCGATCCGATCAAAATTTGCAATGCTTTTCATAAAAACATTTCCATTTTGCGGTCAAAAATGATTAAGTATAATTTACTATTTGATGTGATTAAACGCGATACAGCGTGTGTGTATGACAGACCCATTTACCCCGGCGTAATGACTTTTTTGGGGTTGAAAAAGACAACTACACAGCTTCCCGCAATTTTGCATCCAGTGCCTTCGGTACAGAAGTTGTCTCTGTCTTCAGGTGACGGCTTCCGTGTTTTACAGGAACGTGCCGTGCGCCTTCGTAAGTAAATTTTATGTCGGCCCTGTGTTGGGACGGCATGAAGCATCATTACCGCTTATCGCTTTGATAAGCTTGTAATAACACCAGGATAGTAGTTCTTAAAACTC (double strand) [PlrhA] | binds | 
CGGTGTTTCACGCGATAGTGTCCATTAAAAAATGATGGACACTATTTTCCCGGAACCGGAGCCCGCTGCACAGACGGTTTAAATGTGACGCTTACAATCAGCCGCCCCCTGCGTTCTGTTGTGAAGACGCTCTTTCCGAGATCGTCCCGTAACGCCTGCCAGTAACAGGCCACAGTGTGGCACTAACACAAACTCACCACAGTAATCCCTGCCGAGCCGTTCGCCCTCATGAGAAAACATTAATTAAATTTACCATGAATACAGTAAGGATAATAAAGTTTTATGACACTATAAATAAGACCAGCCTCCCTTTCCTCGCCTGGATTTTATGAGAAAAATCACACTTTAACGGCCTTTAAAGTCACTTAATTTTCCATGAAAACTAAGGTGATAGAGAAAAATCAGGATCATTTAATTTATAAACACCTTTAAATCAATAAGATGAAAGATTGCGGATTAAAAACAGCGATAAAACATAAAAATAACTTAATGATTACCATTTGCTGTGATATACATTAGAAAACTTTAATATTTAATGATGTTTTCTGGTGGGGAGAGTGATATGAGTCACG (double strand) [PCKS_5211] |  | binds
GTTAGCGACCCTCACCAATTTGTTATCCGTTTAAATCAACGATGAATTACGCGTTGCGGTACGAGAAGATTTCCAAAGCGCTTTTTTTTATTCTGCTGATGCAGCGTGGCAACGGGCAAACGCCCGTAAAAGTCTTCTTCCTTGACCCGTTCTGCAAAATTTTTTCTTACTCTGGCCCCACACCTGGCGTCGAATCCACATCGGGTATTGATGTAAAGTCGTACCGGCGCGAAACACCGTTTTTGGGAGCAATGTCACTATCGCTGAAAACCCAGAGTTTTCTGATAGGACAAGTCTTAAAAACATTTGTTTCACGAAAGTGTAAGGCTGAAGAGTGAGTTGACAATGCCGGAAAAAACATTTTCTGACAAGAAAAATCACACAATATTTTTTCTTGTTTAATTTCAATGCATTGCCGATTTTATCACCAAAACAACCCTGTCGATGACTCTGTGTACCGCCCGACTAAAATACGCGATGCGCGGTTTAATAAGAATTATTTTAAGACTTATCGCACATTTATCAGAATATCCTTAGTTGATTTCTGGAAAATATGGTTTGAAAAATGCCCGGATAGTTGTGAATTTCCAATTC (double strand) [PrcsA] |  | binds
TAGCAACACCGGCAGCTAACAGAAAAAGCTTGAATTTCATAACCATTCCTTACTAATTATTTAGGGTCAGTGCTTTTTCACCTGATGGTATAATGCAAAAACCTCGAAAAAATAACATTAAATCGCCAGATAACAGCAACCTGCCGTCACTCTCTCCAGCGCCCCAGAAAAAAGGGGTGCTGATTTATATTAGTTTTTTTTACTATACATCAGCGCAGGCAAAGTGGCGAAACTCATCGATAAATTTTTTATTATTTTGTTACATTGCCTGCCGCAACGGCGAATCGACAGGCGATCACGGGCTGAAGACGCAGAGCCGCAGAACTGTTTTGCCTGTCTGTGGTGTCGCTGTTATGTCTCCGTCAGTTTGGTATGAGAAAGAAGCGCATGCGGGATGTGAGGCTGAAAAGCGGCAGATGCGCTATCTTTGAATAGCTGCTGTCTGCCCGTGCGGTAAAGGTCGTCAGTGCAGGCATAACGTTGTGGTCAGGCAGCAAAACGGCGGCTCATATGCCAGCTAAAAGAATTGATTGAGCCGGACGCTTGCAGGTATCGGAAAGCGCTATTAAAAAAGCCTAATTTAGTCGTTTCCCGCGCCGATAAAAGGGTAACAAGGCGAAAATTCCTTTTCATCATCTCTTTAACAGCGGCGTGTTCGGCGCTATTCGGAAATC (double strand) [PCKS_0458] |  | binds
